# Patent US20230174592A1
# Target: hACE2-mRuby3 (human ACE2 fused at the C-terminus to mRuby3) on 293T-ACE2iRb3 cells (human)
substance,measurement,value
MERS-RBG (MERS-CoV RBD fused to mGamillus) (ligand),mean fluorescence signal (MFI) in the cytoplasm,< 1000 MFI
